Pooled drug test results. Numbers come from NIAID ChemDB, via PubChem.

Shared fields: growth or infection tests; agent: Candida albicans

Conditions beyond the fields shown may differ between rows. An empty or dashed field is not shown. A number after MIC or MFC names an inhibition level or a share of isolates.

smiles	strain	read by	read-out	result
CCCCCOc1ccc(-c2ccc(-c3ccc(C(=O)N[C@H]4CCCNC(=O)[C@@H]5C[C@H](N)CN5C(=O)CNC(=O)C(CCc5ccc(O)cc5)NC(=O)[C@@H]5C[C@@H](O)CN5C(=O)[C@H]([C@@H](C)O)NC4=O)cc3)cc2)cc1	ATCC CCH442	-	MIC	0.39 µg/mL
Clc1ccc(C(Cn2ccnc2)OCc2ccc(-c3ccccc3)cc2)c(Cl)c1	PR1	-	MIC	>128 µg/mL
CCCCCOc1ccc(-c2ccc(-c3ccc(C(=O)N[C@H]4CCCNC(=O)[C@@H]5C[C@H](N)CN5C(=O)C(C)(C)NC(=O)C(CCc5ccc(O)cc5)NC(=O)[C@@H]5C[C@@H](O)CN5C(=O)[C@H]([C@@H](C)O)NC4=O)cc3)cc2)cc1	ATCC 62376	-	MIC	50 µg/mL
CC(C)(C)c1ccc(COC(Cn2ccnc2)c2ccccc2)cc1	CDCB385	-	MIC	128 µg/mL
C=CCc1ccc(O)c(OC)c1	2874	turbidity	MIC90	485 µg/mL
CCOC[N+](C)(C)Cc1cc(N=Nc2ccc(Cl)cc2)ccc1O	-	-	MBC	651 µM
CC(C)(C)c1ccc(COC(Cn2ccnc2)c2ccc(Cl)cc2)cc1	PR1	-	MIC	>128 µg/mL
CCCCCOc1ccc(-c2ccc(-c3ccc(CN[C@H]4CCCNC(=O)C5C[C@H](N)CN5C(=O)C(C(C)O)NC(=O)C(CCc5ccc(O)cc5)NC(=O)C5C[C@@H](O)CN5C(=O)C(C(C)O)NC4=O)cc3)cc2)cc1	ATCC 10231	-	MIC	0.39 µg/mL
Nc1[nH]c(=O)ncc1F	166 isolates	-	MIC90	4 µg/mL
CCCCCOc1ccc(-c2ccc(-c3ccc(C(=O)N[C@H]4CCCNC(=O)C5C[C@H](F)N5C(=O)C(C(C)O)NC(=O)C(CCc5ccc(O)cc5)NC(=O)C5C[C@@H](O)CN5C(=O)C(C(C)O)NC4=O)cc3)cc2)cc1	ATCC CCH442	-	MIC	0.39 µg/mL
Clc1ccc(C(Cn2ccnc2)OCc2ccc(-c3ccccc3)cc2)cc1	Y0109	-	MIC	>128 µg/mL
CCCCCOc1ccc(-c2ccc(-c3ccc(C(=O)N[C@H]4CCCNC(=O)C5C[C@H](N=C(N)N)CN5C(=O)C(C(C)O)NC(=O)C(CCc5ccc(O)cc5)NC(=O)C5C[C@@H](O)CN5C(=O)C(C(C)O)NC4=O)cc3)cc2)cc1	ATCC 10231	-	MIC	0.2 µg/mL
C[N+](C)(COC1CCCCCC1)Cc1cc(N=Nc2ccc(Cl)cc2)ccc1O	-	-	MBC	256 µM
CCCCCCCCCCCCCCCC(=O)N[C@H]1CCCNC(=O)C2C[C@H](N)CN2C(=O)C(C(C)O)NC(=O)C(CCc2ccc(O)cc2)NC(=O)C2C[C@@H](O)CN2C(=O)C(C(C)O)NC1=O	ATCC 62376	-	MIC	0.78 µg/mL
Cc1ccc(C(Cn2ccnc2)OCc2ccc(C(C)(C)C)cc2)cc1	3M	-	MIC	>128 µg/mL
CCCCCOc1ccc(-c2ccc(-c3ccc(C(=O)N[C@H]4CCCNC(=O)[C@@H]5C[C@H](N)CN5C(=O)[C@H](CC)NC(=O)C(CCc5ccc(O)cc5)NC(=O)[C@@H]5C[C@@H](O)CN5C(=O)[C@H]([C@@H](C)O)NC4=O)cc3)cc2)cc1	ATCC 62376	-	MIC	0.1 µg/mL
CC[C@@H]([C@H](C)O)n1ncn(-c2ccc(N3CCN(c4ccc(OC[C@@H]5CO[C@@](Cn6cncn6)(c6ccc(F)cc6F)C5)cc4)CC3)cc2)c1=O	Isolate CA-8	-	MIC	>4 µg/mL
Cc1ccc(N=Nc2ccc(O)c(C[N+](C)(C)COC3CCC(C)CC3)c2)cc1	-	-	MBC	143 µM
CC(C)(C)c1ccc(COC(Cn2ccnc2)c2ccc(Cl)cc2Cl)cc1	PR1	-	MIC	128 µg/mL
CCCCCCCOc1ccc(N2CCN(c3ccc(C(=O)N[C@H]4CCCNC(=O)[C@@H]5C[C@H](N)CN5C(=O)[C@H]([C@@H](C)O)NC(=O)[C@H](CCc5ccc(N)cc5)NC(=O)[C@@H]5CCCN5C(=O)[C@H]([C@@H](C)O)NC4=O)cc3)CC2)cc1	ATCC 38247	-	MIC	0.78 µg/mL
CCCCOC[N+](C)(C)Cc1cc(N=Nc2ccc(C)cc2)ccc1O	-	-	MBC	319 µM
CCCCCCCOc1ccc(N2CCN(c3ccc(C(=O)N[C@H]4CCCNC(=O)[C@@H]5C[C@H](N)CN5C(=O)[C@H]([C@@H](C)O)NC(=O)[C@H](CCc5ccc(C)cc5)NC(=O)[C@@H]5CCCN5C(=O)[C@H]([C@@H](C)O)NC4=O)cc3)CC2)cc1	ATCC 62376	-	MIC	3.12 µg/mL
CC(=O)N1CCN(c2ccc(OC[C@H]3CO[C@](Cn4ccnc4)(c4ccc(Cl)cc4Cl)O3)cc2)CC1	B59630	-	MIC	>4 µg/mL
CCCCCOc1ccc(-c2ccc(-c3ccc(C(=O)N[C@H]4CCCNC(=O)[C@@H]5C[C@H](N)CN5C(=O)[C@H](CCC(=O)O)NC(=O)C(CCc5ccc(O)cc5)NC(=O)[C@@H]5C[C@@H](O)CN5C(=O)[C@H]([C@@H](C)O)NC4=O)cc3)cc2)cc1	ATCC 38247	-	MIC	1.56 µg/mL
O[C@](Cn1cncn1)(Cn1cnc(/C=C/c2ccc(OCC(F)(F)C(F)F)cc2)n1)c1ccc(F)cc1F	Isolate 04-28	-	MIC	0.12 µg/mL
Clc1ccc(C(Cn2ccnc2)OCc2cccc3ccccc23)cc1	CA12	-	MIC	128 µg/mL
CCCCCCCCCCCCCCCCCC(=O)NC1CC(O)C(O)NC(=O)C2C(O)C(C)CN2C(=O)C(C(C)O)NC(=O)C(C(O)C(O)c2ccc(O)cc2)NC(=O)C2CC(O)CN2C(=O)C(C(C)O)NC1=O	MY1750	-	MIC	0.5 µg/mL
CCCCCOc1ccc(-c2ccc(-c3ccc(C(=O)N[C@H]4CCCNC(=O)[C@@H]5C[C@H](N)CN5C(=O)[C@H]([C@@H](C)O)NC(=O)[C@H](CCc5ccc(O)cc5)NC(=O)[C@@H]5C[C@@H](O)CN5C(=O)[C@H]([C@@H](C)O)NC4=O)cc3)cc2)cc1	ATCC 38247	-	MIC	0.39 µg/mL
C(=C\c1ccccc1)/COC(Cn1ccnc1)c1ccccc1	CA2	-	MIC	128 µg/mL
CCC(C)CC(C)CCCCCCCCC(=O)NC1C[C@H](O)[C@@H](O)NC(=O)[C@@H]2[C@@H](O)[C@@H](C)CN2C(=O)[C@H]([C@H](O)CC(N)=O)NC(=O)[C@H](C(O)[C@H](O)c2ccc(O)cc2)NC(=O)[C@@H]2C[C@@H](O)CN2C(=O)[C@H]([C@@H](C)O)NC1=O	MY1028	-	MIC	1 µg/mL

4 of the rows above, restated:

smiles	strain	read by	read-out	result
CCCCCOc1ccc(-c2ccc(-c3ccc(C(=O)N[C@H]4CCCNC(=O)C5C[C@H](N=C(N)N)CN5C(=O)C(C(C)O)NC(=O)C(CCc5ccc(O)cc5)NC(=O)C5C[C@@H](O)CN5C(=O)C(C(C)O)NC4=O)cc3)cc2)cc1	ATCC 10231	-	MIC	0.2 µg/mL
Nc1[nH]c(=O)ncc1F	166 isolates	-	MIC90	4 µg/mL
CCCCCOc1ccc(-c2ccc(-c3ccc(CN[C@H]4CCCNC(=O)C5C[C@H](N)CN5C(=O)C(C(C)O)NC(=O)C(CCc5ccc(O)cc5)NC(=O)C5C[C@@H](O)CN5C(=O)C(C(C)O)NC4=O)cc3)cc2)cc1	ATCC 10231	-	MIC	0.39 µg/mL
CC[C@@H]([C@H](C)O)n1ncn(-c2ccc(N3CCN(c4ccc(OC[C@@H]5CO[C@@](Cn6cncn6)(c6ccc(F)cc6F)C5)cc4)CC3)cc2)c1=O	Isolate CA-8	-	MIC	>4 µg/mL